Data as given in PMC3305447, “A Peptidoglycan Fragment Triggers β-lactam Resistance in Bacillus licheniformis” (PLoS Pathogens, 2012).

Target: T1, MecI (Staphylococcus aureus ATCC 43300) (UniProt P68261)
T1 sequence (looked up, limits assumed): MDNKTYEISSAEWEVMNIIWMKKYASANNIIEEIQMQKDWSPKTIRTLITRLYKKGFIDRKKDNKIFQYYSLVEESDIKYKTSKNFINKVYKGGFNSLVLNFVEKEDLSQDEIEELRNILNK
Test: EMSA
Conditions: no coactivator; 0.5 uM Cy5-OP1 + 13.5 uM repressor (ALF sequencer) or 2.5 uM DNA + 50 uM repressor (1% agarose); recombinant protein; protein details: C-terminal His6; label: 5'-Cy5 on printed strand

Sequence: GCATTTAAATCTTACATATGTAATACTTTC (double strand) [OP1 operator]
- binding result: binds

For at least one entry, the source does not settle the construct or the ends of the probe. At least one verdict was read from the data and is not stated in words by the source. Protein sequences can lack the tags named with them.
